Results of unrelated studies side by side (data: NIAID ChemDB).

Common to all: growth or infection tests; agent: Mycobacterium smegmatis

Rows are shuffled and stem from different studies.

| compound | read-out | conditions | changes | method | strain | result |
|---|---|---|---|---|---|---|
| Cc1ccccc1-c1cnc(-c2ccc(-c3ccccc3C(F)(F)F)o2)[nH]1 | MIC100 | - | - | broth dilution / turbidity | - | 11–20 µg/mL |
| CCCCCCCCCCCCCOc1cc(-c2cccc(F)c2)nc2ccccc12 | MIC | - | - | - | ATCC 607 | 125 µg/mL |
| CCCCCCCC/C=N/NC(=O)c1cnc2cccc(C(F)(F)F)c2c1NC(CSc1ccccc1)CC(=O)N(C)C | MIC | - | - | resazurin | ATCC 19420 | 10 µg/mL |
| CCOC(=O)NC(=O)c1ccsc1NC(=O)c1nc2ccccc2s1 | MIC99 | biofilm | - | turbidity | - | 0.03 µg/mL |
| COc1ccc(CC2C3=C(CCCC3)CCN2c2cc3c(cc2[N+](=O)[O-])c(=O)c(C(=O)O)c2n3CS2)cc1 | MIC | - | - | agar | ATCC 14468 MC2 | 11.71 µM |
| CCCCCCCCCCCCCCSCC#CC(=O)O | MIC99 | - | - | - | mc2155 | 80 µM |
| Cc1ccccc1/C=C/C1=NN(C(=N)N)C(c2ccccc2C)C1 | MIC | - | - | resazurin | - | 1.96 µM |
| COc1ccc(/C=N/NC(=O)c2cnc3cc(F)ccc3c2NC(CSc2ccccc2)CC(=O)N(C)C)cc1O | MIC | - | - | resazurin | ATCC 19420 | >100 µg/mL |
| CCCCCCCCCCCCCCCCC#CC(=O)O | MIC99 | - | - | - | mc2651 | 34 µM |
| Cc1c(CN2CCN(C)CC2)cc(-c2ccc(Cl)cc2)n1-c1ccc(Cl)cc1 | MIC | - | - | - | CIP 103599 | 25 µg/mL |
| Cc1ccccc1-c1cnc(-c2ccc(-c3ccccc3OC(F)(F)F)o2)[nH]1 | MIC100 | - | - | broth dilution / turbidity | - | 11–20 µg/mL |
| CN(C)C(=O)CC(CSc1ccccc1)Nc1c(C(=O)N/N=C/c2cc(F)ccc2O)cnc2cc(F)ccc12 | MIC | - | - | resazurin | ATCC 19420 | >100 µg/mL |
| CCCCCCCCCCCCCCCC#CCC#CC(=O)O | MIC99 | - | - | - | mc2155 | 78.6 µM |
| NCCOCc1ccc(Nc2ccn(CCCCN3CCC(N)CC3)c(=O)n2)nc1 | MIC | - | - | turbidity | - | 32–128 µg/mL |
| CC(C)(C)OC(=O)NC1C2CN(c3cc4c(cc3F)c(=O)c(C(=O)O)c3n4CS3)CC21 | MIC | - | - | agar | ATCC 14468 MC2 | 55.87 µM |
| CCCCCCCCCCCCCCOc1cc(-c2cccc(F)c2)nc2ccccc12 | MIC | - | - | - | ATCC 607 | 125 µg/mL |
| COc1ccc(/C=N/NC(=O)c2cnc3cccc(C(F)(F)F)c3c2NC(CSc2ccccc2)CC(=O)N(C)C)c(F)c1 | MIC | - | - | resazurin | ATCC 19420 | >100 µg/mL |
| CCCCCCCCCOc1cc(-c2ccccc2F)nc2ccccc12 | MIC | - | - | - | ATCC 607 | 500 µg/mL |
| CCCCCCCC1SCC(=O)N1NC(=O)c1ccncc1 | MIC | - | - | agar | - | 50 µg/mL |
| FC(F)(F)c1cc(-c2ccccc2)nc(N2N=C(/C=C/c3ccc(Cl)cc3)CC2c2ccc(Cl)cc2)n1 | MIC | - | - | resazurin | - | >20.6 µM |
| CCc1cc(C(N)=S)ccn1 | MIC | - | - | - | MC^2 144 | 10 µg/mL |
| COc1cc2c(cc1OC)CN(c1cc3c(cc1F)c(=O)c(C(=O)O)c1n3CS1)CC2 | MIC | - | - | agar | ATCC 14468 MC2 | 113 µM |
| NCCCNC(=O)c1ccnc(Nc2ccn(CCCCN3CCC(N)CC3)c(=O)n2)c1 | MIC | - | - | turbidity | - | <8 µg/mL |
| CC[C@H](C)[C@@H](NC(=O)[C@@H](CCC(=O)O)NC(=O)[C@H](Cc1cnc[nH]1)NC(=O)[C@H](CC(C)C)NC(=O)[C@@H](C)N)C(=O)N[C@H]1CCCCNC1=O | MIC | - | - | - | - | >50 µg/mL |
| Cc1[nH]c(-c2ccc(-c3ccc(Cl)cc3Cl)o2)nc1-c1ccccc1 | MIC100 | - | - | broth dilution / turbidity | - | 11–20 µg/mL |
| CCCCCCCCCCOc1cc(-c2cccc(F)c2)nc2ccccc12 | MIC | - | - | - | ATCC 607 | 125 µg/mL |
| C=C[C@]1(C)C2=C3c4c([nH]c5cccc(c45)C(C)(C)[C@H]3C[C@H]1Cl)C(C)(C)C(C#N)=C2 | MIC | - | - | resazurin | - | 49.7 µM |
| CC(C)(C)NC(=O)C1c2ccccc2CCN1c1cc2c(cc1F)c(=O)c(C(=O)O)c1n2CS1 | MIC | - | - | agar | ATCC 14468 MC2 | 51.92 µM |
| CCCCCOc1cc(-c2ccccc2F)nc2ccccc12 | MIC | - | - | - | ATCC 607 | 125 µg/mL |
| Cc1[nH]c(-c2ccc(-c3ccc(Cl)c(OC(F)(F)F)c3)o2)nc1-c1ccc(F)cc1 | MIC100 | - | - | broth dilution / turbidity | - | 20–50 µg/mL |
| CCCCCCCCCCOc1cc(-c2ccc(F)cc2)nc2ccccc12 | MIC | - | - | - | ATCC 607 | 250 µg/mL |
| CCCCCCCCCCCCSCC#CC(=O)O | MIC99 | - | - | - | mc2155 | 43.9 µM |
| O=C(O)c1cn2c(n1)CN(c1cc3c(cc1F)c(=O)c(C(=O)O)c1n3CS1)CC2 | MIC | - | - | agar | ATCC 14468 MC2 | 60.04 µM |
| CCCCCCCC1OC(c2ccncc2)=NN1C(C)=O | MIC | - | - | agar | - | >100 µg/mL |
| CCCCCCCCCCCCCC#CC(=O)OCC(O)CO | MIC99 | - | - | - | mc2155 | 6.1 µM |
| CCCCCCCCCCCCCCOc1cc(-c2ccccc2F)nc2ccccc12 | MIC | - | - | - | ATCC 607 | 500 µg/mL |
| NCCCNCc1ccc(Nc2ccn(CCOCCN3CCC(N)CC3)c(=O)n2)nc1 | MIC | - | - | turbidity | - | 32–128 µg/mL |
| COc1ccccc1/C=C/C1=NN(C(=N)N)C(c2ccccc2OC)C1 | MIC | - | - | resazurin | - | 1.78 µM |
| Cc1onc(-c2c(F)cccc2F)c1C(=O)N1CCN(c2cc3c(cc2[N+](=O)[O-])c(=O)c(C(=O)O)c2n3CS2)CC1 | MIC | - | - | agar | ATCC 14468 MC2 | 5.36 µM |
| CCc1nc(NCCCc2ccccc2)c2cc(C)sc2n1 | EC50 | - | cydA +EV | resazurin | mc2155 | 0.41 µM |
| CCS(=O)CCCCCCCCCCCCC#CC(=O)O | MIC99 | - | - | - | mc2155 | >200 µM |
| CC1(N)CCN(CCCCn2ccc(Nc3ccc(CNCCCN)cn3)nc2=O)CC1 | MIC | - | - | turbidity | - | <8 µg/mL |
| CCCCCCSCCCCCCCCCCC#CC(=O)O | MIC99 | - | - | - | mc2155 | 76.6 µM |
| COc1cc2c(cc1OC)CN(c1cc3c(cc1[N+](=O)[O-])c(=O)c(C(=O)O)c1n3CS1)CC2 | MIC | - | - | agar | ATCC 14468 MC2 | 106.5 µM |

MIC50, MIC90 and the like: level of inhibition, or share of isolates inhibited. ECn: concentration that inhibits the pathogen or its effect by n%. Blank or dashed fields: not listed here. Two numbers with a dash give a range or band.